Measured values from several laboratories, pooled; numbers as filed in NIAID ChemDB.

Common to all: growth or infection tests; species: HIV-1; endpoint: EC50

Neighbouring rows are from separate reports. ECn: concentration that inhibits the pathogen or its effect by n%. a–b is a range or a potency band. An empty or dashed field is not shown.

compound,method,strain or isolate,setting,changes,cell line,value
CC(C)=CCOc1cc(NC(=S)c2ccsc2C)ccc1Cl,p24,NL4-3,-,-,CEM + CEM-SS,0.006 µM
Nc1ncnc2c1ncn2COCCOP(=O)([O-])O[C@@H]1[C@H](O)[C@@H](COP(=O)([O-])O[C@@H]2[C@H](O)[C@@H](COP(=O)([O-])O[C@@H]3[C@H](O)[C@@H](CO)O[C@H]3n3cnc4c(N)ncnc43)O[C@H]2n2cnc3c(N)ncnc32)O[C@H]1n1cnc2c(N)ncnc21,syncytia,-,-,-,SupT1 + Sup-T1,<300 µM
CC(=O)N[C@@H]1CCN(c2cc(C)nn3c(I)c(C)nc23)C1,p24,-,-,-,H9,>10 µM
COc1ccccc1C(=O)Nc1ccc(Cl)c(C(=O)OC(C)C)c1,cytopathic effect / XTT,RF,-,-,CEM + CEM-SS,1.3 µM
CC(C)C1=C2[C@H]3CC[C@@H]4[C@@]5(C)CC[C@H](OC(=O)[C@H]6C[C@@H](C(=O)O)C6(C)C)C(C)(C)[C@@H]5CC[C@@]4(C)[C@]3(C)CC[C@@]2(CC(=O)NCc2ccc(OCCN3CCOCC3)cc2)CC1=O,p24 / ELISA,92HT599,-,-,MT-2,<1 µM
Cc1cc(OCCCS(N)(=O)=O)ccc1NC(=O)COc1ccc(Cl)cc1C(=O)c1cc(F)cc(C(F)(F)F)c1,β-galactosidase,HXB2,-,RT-P236L,HeLa + HELA CD4+,<0.01 µM
O=C(NCc1ccc(OC(F)(F)F)cc1)C1CCN(CCC(c2ccccc2)c2ccccc2)CC1,luciferase,-,-,-,MAGI-CCR5,0.425 µM
CC(=O)COc1cc(NC(=S)OC(C)C)ccc1Cl,cytopathic effect / XTT,RF,-,-,CEM + CEM-SS,1.18 µM
CN(C(=O)[C@H](Cc1ccccc1)Nc1nccc(-c2ccnc(N[C@@H](Cc3ccccc3)C(=O)N(C)c3ccc4scnc4c3)n2)n1)c1ccc2scnc2c1,luciferase,NL4-3,-,-,MT-2,0.09 µM
CC(C)C(OC(=O)c1cc(NC(=S)c2cccn2C)ccc1Cl)C(C)C,cytopathic effect / XTT,IIIB,-,-,CEM + CEM-SS,0.06 µM
Nc1ncnc2c1ncn2COCCOP(=O)([O-])O[C@@H]1[C@H](O)[C@@H](COP(=O)([O-])O[C@@H]2[C@H](O)[C@@H](COP(=O)([O-])O[C@@H]3[C@H](O)[C@@H](CO)O[C@H]3n3cnc4c(NCc5ccccc5)ncnc43)O[C@H]2n2cnc3c(N)ncnc32)O[C@H]1n1cnc2c(N)ncnc21,p24,-,-,-,SupT1 + Sup-T1,<100 µM
N#Cc1ccc(Cn2cc(Cc3ccccc3F)cc(/C(O)=C/C(=O)C(=O)O)c2=O)cc1,-,-,-,-,MAGI,1.1 µM
COc1ccc(-c2c(C)nc3c(N4CC[C@@H](n5cc(-c6ccccc6)nn5)C4)cc(C)nn23)cc1OC,p24,-,-,-,H9,0.3 µM
O=C(O)C(=O)/C=C(\O)c1cc(Cc2cccc(Cl)c2)cn(Cc2ccc(Cl)cc2)c1=O,-,-,-,-,MAGI,2.5 µM
Nc1nc(Cl)c2ncn([C@@H]3O[C@H](CO)C[C@@H]3F)c2n1,cytopathic effect / XTT,LAI,-,-,ATH-8 + ATH8,<50 µM
COc1cc(-c2ccc(N=Nc3ccc4c(S(=O)(=O)O)cc(S(=O)(=O)O)c(N)c4c3O)c(OC)c2)ccc1N=Nc1ccc2c(S(=O)(=O)O)cc(S(=O)(=O)O)c(N)c2c1O,cytopathic effect / XTT,SKI,-,-,CEM + CEM-SS,1.6 µM
Cc1ccc(N(C)C(=O)[C@H](Cc2cc(F)cc(F)c2)NC(=O)CN2c3ccccc3N(CC(=O)N[C@@H](Cc3cc(F)cc(F)c3)C(=O)N(C)c3ccc(C)nc3)S2(=O)=O)cn1,luciferase,NL4-3,-,-,MT-2,0.02 µM
Cc1ccc(-c2ccc(NC(=O)N3CCC4(CCO4)CC3)cc2)cc1,luminescence,CE0217,pseudotyped,-,TZM-bl,>30 µM
CCC(=O)c1ccc(F)c([C@@H]2C[C@@H]2NC(=O)Nc2ccc(C#N)cn2)c1O,β-galactosidase / luminescence,LAI,-,NNRTI-resistant (RT Y188L),TZM-bl,≥0.0625 µM
Cc1cc(C#N)cc(C)c1Oc1nc(Nc2ccc(C#N)cc2)nc(N)c1Br,-,-,-,NL/181,TZM-bl,0.0125 µM
CC(=O)N[C@@H](CCCCNC(=O)N(CCCl)N=O)C(=O)NCc1ccccc1,cytopathic effect / XTT,IIIB,-,-,CEM-IW + CEM,>100 µM
C[C@@H](O)[C@H](NC(=O)[C@@H](N)CC(N)=O)C(=O)N[C@@H](CO)C(=O)N[C@@H](Cc1ccc(O)cc1)C(=O)NCC(=O)O,RT activity,LAV,-,-,A3.01,<0.001 µM
Nc1nccc2c1ncn2[C@@H]1C=C(CO)[C@@H](O)[C@H]1O,p24,18431 unpaired,-,-,PBMC,0.0027 µM
O=C(COc1ccc(Cl)cc1C(=O)c1ccco1)Nc1ccc2cn[nH]c2c1,β-galactosidase,HXB2 (RT-K103N Y181C) Recombinant,-,RT-K103N Y181C,HeLa + HELA CD4+,0.101–1 µM
Cc1cc(C(=O)NC(C)(C)C(=O)NC[C@H](O)[C@@]23CC[C@]4(C)[C@H](CC[C@@H]5[C@@]6(C)CC[C@H](OC(=O)[C@H]7C[C@@H](C(=O)O)C7(C)C)C(C)(C)[C@@H]6CC[C@]54C)C2=C(C(C)C)C(=O)C3)n[nH]1,p24 / ELISA,92HT599,-,-,MT-2,<1 µM
O=C(O)C(=O)/C=C(\O)c1cc(Cc2ccc(F)cc2)cn(Cc2cccc(Cl)c2)c1=O,-,-,-,-,MAGI,1.2 µM
Cc1cc(S(N)(=O)=O)ccc1NC(=O)COc1ccc(Cl)cc1C(=O)c1cc(F)cc(C#N)c1,β-galactosidase,WTRVA,-,-,HeLa + HELA CD4+,<0.01 µM
COC[C@@H](c1ccc(C(F)(F)F)cc1)N1CCN(C2(C)CCN(C(=O)c3c(C)ncnc3C)CC2)C[C@@H]1C,-,S,-,G514V,TZM-bl,0.0044 µM
Nc1ncnc2c1ncn2[C@H]1C=C[C@](OCP(=O)(O)O)(C2CC2)C1,XTT / absorbance,-,-,-,T4,18.6 µM
COc1ccnc2[nH]cc(C(=O)C(=O)N3CCN(C(=O)c4ccccc4)C[C@H]3C)c12,syncytia,YU2 WT,-,-,Cf2Th-CD4+ CCR5+/293T,4 µM
CC(C)C1=C2[C@H]3CC[C@@H]4[C@@]5(C)CC[C@H](OC(=O)[C@H]6C[C@@H](C(=O)O)C6(C)C)C(C)(C)[C@@H]5CC[C@@]4(C)[C@]3(C)CC[C@@]2(CC(=O)NC2(c3ccc(Cl)cc3)CCC2)CC1=O,p24 / ELISA,92HT599,-,-,MT-2,<1 µM
CC(C)=CCN1CC(C)Cn2c(=S)[nH]c3cccc1c32,cytopathic effect / XTT,IIIB,-,-,CEM(SS) + CEM-SS,0.498 µM
Cc1nnc(-c2ccc(CNC(=O)C[C@@]34CC[C@]5(C)[C@H](CC[C@@H]6[C@@]7(C)CC[C@H](OC(=O)[C@H]8C[C@@H](C(=O)O)C8(C)C)C(C)(C)[C@@H]7CC[C@]65C)C3=C(C(C)C)C(=O)C4)cc2)o1,p24 / ELISA,92HT599,-,-,MT-2,<1 µM
CC(C)(C)C(=O)SCCOP(=O)(CO[C@@]1(C2CC2)C[C@@H](n2cnc3c(N)ncnc32)[C@H](O)[C@@H]1O)OCCSC(=O)C(C)(C)C,XTT / absorbance,-,-,-,T4,9.8 µM
C[C@@H](O)[C@H](N)C(=O)N[C@H](C(=O)N[C@@H](CC(N)=O)C(=O)N[C@@H](Cc1ccc(O)cc1)C(=O)N[C@H](C(=O)O)[C@@H](C)O)[C@@H](C)O,RT activity,LAV,-,-,A3.01,<0.001 µM
Nc1ccn([C@@H]2CS[C@H](CO)O2)c(=O)n1,single cycle,IIIB,-,-,MAGI,7.5 µg/mL
[2H]C(CNC(=O)C[C@@]12CC[C@]3(C)[C@H](CC[C@@H]4[C@@]5(C)CC[C@H](OC(=O)[C@H]6C[C@@H](C(=O)O)C6(C)C)C(C)(C)[C@@H]5CC[C@]43C)C1=C(C(C)C)C(=O)C2)(NC(=O)c1ccc(Cl)cc1)C(C)O,p24 / ELISA,92HT599,-,-,MT-2,<1 µM
Cc1cc2[nH]cnc2cc1NC(=O)COc1ccc(Cl)cc1C(=O)c1cc(F)cc(C(F)(F)F)c1,β-galactosidase,HXB2 (RT-K103N Y181C) Recombinant,-,RT-K103N Y181C,HeLa + HELA CD4+,0.011–0.1 µM
CC=CCOc1cc(NC(=S)c2ccoc2C)ccc1OC,cytopathic effect / XTT,NL4-3,-,RT-Y181C,CEM + CEM-SS,1.4 µM
CCN1CCN(CCNCC[C@@]23CC[C@]4(C)[C@H](CC[C@@H]5[C@@]6(C)CC[C@H](OC(=O)[C@H]7C[C@@H](C(=O)O)C7(C)C)C(C)(C)[C@@H]6CC[C@]54C)C2=C(C(C)C)C(=O)C3)CC1,p24 / ELISA,92HT599,-,-,MT-2,<1 µM
Cc1cc(C#N)cc(C(=O)c2ccccc2OCC(=O)Nc2ccc(S(N)(=O)=O)cc2C)c1,β-galactosidase,-,-,RT-K103N,HeLa MAGI + HeLa,~0.001 µM
CC(=O)N[C@@H](CCCCNC(=O)OCc1ccccc1)C(=O)O,cytopathic effect / XTT,IIIB,-,-,CEM-IW + CEM,>100 µM
O=C(O)C(=O)/C=C(\O)c1cc(Cc2ccccc2F)cn(Cc2ccc(F)cc2F)c1=O,-,-,-,-,MAGI,0.6 µM
COc1cnc(-n2cnc(C)n2)c2[nH]cc(C(=O)C(=O)N3CCN(C(=O)c4ccccc4)CC3)c12,luciferase,NL4-3,-,M426P,U-87,0.0099 µM
CCCN(CCC[C@H](NC(C)=O)C(=O)NCc1ccccc1)C(=O)N(C)N=O,cytopathic effect / XTT,IIIB,-,-,CEM-IW + CEM,>100 µM
Cc1cc(S(N)(=O)=O)ccc1NC(=O)COc1ccc(Cl)cc1C(=O)c1cccc(C#N)c1,β-galactosidase,HXB2,-,RT-P225H,HeLa + HELA CD4+,<0.01 µM
CC1CNC(=O)c2ccccc2SSc2ccccc2C(=O)N1,p24 / ELISA / antigen,IIIB,-,-,HuT-78,29 µM
C=CCO/N=C/c1cc(NC(=S)c2ccoc2C)ccc1Cl,cytopathic effect / XTT,4XAZT/Y181C (RT D67N K70R Y181C T215Y K219Q),-,RT-D67N K70R Y181C T215Y K219Q,CEM + CEM-SS,0.3 µM
COc1ccc(-c2csc3c(N4CC[C@@H](NC(C)=O)C4)nc(C)nc23)cc1OC,p24,-,-,-,H9,>100 µM
Nc1ncnc2c1ncn2[C@@H]1O[C@H](COP(=O)(O)O[C@@H]2[C@H](O)[C@@H](COP(=O)(O)O[C@@H]3[C@H](O)[C@@H](CO)O[C@H]3n3cnc4c(N)ncnc43)O[C@H]2n2cnc3c(N)ncnc32)[C@@H](O)[C@H]1O,RT activity,-,-,-,SupT1 + Sup-T1,>300 µM
CC(C)C1=C2[C@H]3CC[C@@H]4[C@@]5(C)CC[C@H](OC(=O)[C@H]6C[C@@H](C(=O)O)C6(C)C)C(C)(C)[C@@H]5CC[C@@]4(C)[C@]3(C)CC[C@@]2([C@@H](O)CNC(=O)CN2CCCCC2)CC1=O,p24 / ELISA,92HT599,-,-,MT-2,<1 µM
CNC(=O)NCCC[C@H](NC(C)=O)C(=O)NCc1ccccc1,cytopathic effect / XTT,IIIB,-,-,CEM-IW + CEM,>100 µM
CCc1cc(C#N)cc(C(=O)c2cc(Cl)ccc2OCC(=O)Nc2ccc(S(N)(=O)=O)cc2C)c1,β-galactosidase,HXB2,-,RT-Y181C,HeLa + HELA CD4+,<0.01 µM
COCCOc1ccc(C(=O)NC[C@H](O)[C@@]23CC[C@]4(C)[C@H](CC[C@@H]5[C@@]6(C)CC[C@H](OC(=O)[C@H]7C[C@@H](C(=O)O)C7(C)C)C(C)(C)[C@@H]6CC[C@]54C)C2=C(C(C)C)C(=O)C3)cc1,p24 / ELISA,92HT599,-,-,MT-2,<1 µM
Cc1occc1C(=S)Nc1ccc(Cl)c(/C=N/OC(C)(C)C)c1,cytopathic effect / XTT,NL4-3,-,RT-V179D,CEM + CEM-SS,0.73 µM
CN(C(=O)[C@H](Cc1cc(F)cc(F)c1)NC(=O)NS(=O)(=O)N[C@@H](Cc1cc(F)cc(F)c1)C(=O)N(C)c1ccc(OC(F)(F)F)cc1)c1ccc(OC(F)(F)F)cc1,luciferase,NL4-3,-,-,MT-2,0.01 µM
Nc1nc2c(ncn2[C@@H]2O[C@H](CO)C[C@@H]2F)c(=O)[nH]1,cytopathic effect / XTT,LAI,-,-,ATH-8 + ATH8,~50 µM
CC(=O)N[C@@H](CCCNC(=O)OCc1ccccc1)C(=O)NCc1ccccc1,cytopathic effect / XTT,IIIB,-,-,CEM-IW + CEM,>100 µM
Clc1cc(CN2CCCNCCNCCCNCC2)cc(Cl)n1,p24,HE R3 R5 X4,-,-,HOS-CD4-CXCR4 + HOS,7.9 µM
Cc1cc(C#N)cc(C(=O)c2cc(Cl)ccc2OCC(=O)Nc2ccc(S(N)(=O)=O)cc2C)c1,β-galactosidase,HXB2,-,RT-K103N V108I,HeLa + HELA CD4+,<0.01 µM
Cc1cc(F)ccc1Cc1cc(/C(O)=C/C(=O)C(=O)O)c(=O)n(Cc2ccccc2)c1,-,-,-,-,MAGI,1.3 µM
COc1cc(Cl)ccc1CNC(=O)C[C@@]12CC[C@]3(C)[C@H](CC[C@@H]4[C@@]5(C)CC[C@H](OC(=O)[C@H]6C[C@@H](C(=O)O)C6(C)C)C(C)(C)[C@@H]5CC[C@]43C)C1=C(C(C)C)C(=O)C2,p24 / ELISA,92HT599,-,-,MT-2,<1 µM
COc1ccc(N(C)C(=O)[C@H](Cc2ccccc2)NC(=O)[C@H](Cc2ccccc2)NC(=O)N[C@@H](Cc2ccccc2)C(=O)N[C@@H](Cc2ccccc2)C(=O)N(C)c2ccc(OC)cc2)cc1,luciferase,NL4-3,-,-,MT-2,0.49 µM
Nc1nccc2c1ncn2[C@@H]1O[C@H](CO)[C@@H](O)[C@H]1O,p24,A018 POST-AZT,-,-,PBMC,0.683 µM
CCSc1cc(N2CC[C@@H](NC(C)=O)C2)c2nc(C)c(-c3ccc(OC)c(OC)c3)n2n1,p24,-,-,-,H9,1 µM
C=CCN(C(=O)[C@H](Cc1cc(F)cc(F)c1)NC(=O)NS(=O)(=O)N[C@@H](Cc1cc(F)cc(F)c1)C(=O)N(CC=C)c1ccc2scnc2c1)c1ccc2scnc2c1,luciferase,NL4-3,-,-,MT-2,0.1 µM